Earlier results in patent EP3645498B1, “PROCESS FOR RECOVERING ACETIC ACID FROM AN AQUEOUS STREAM COMPRISING THE SAME” (Nouryon Chemicals International B.V., priority 2017, dated 2019).

Conditions: 20°C

## CCCCOP(=O)(OCCCC)OCCCC
  Solubility in water: 6 g/L (20°C) ^[4]
